Data taken from paper PMC8872791, “MadR mediates acyl CoA-dependent regulation of mycolic acid desaturation in mycobacteria” (Proceedings of the National Academy of Sciences of the …, 2022).

Molecular target: T1, MadR (Mycobacterium tuberculosis H37Rv) (UniProt P9WMD9)
T1 sequence (looked up, limits assumed): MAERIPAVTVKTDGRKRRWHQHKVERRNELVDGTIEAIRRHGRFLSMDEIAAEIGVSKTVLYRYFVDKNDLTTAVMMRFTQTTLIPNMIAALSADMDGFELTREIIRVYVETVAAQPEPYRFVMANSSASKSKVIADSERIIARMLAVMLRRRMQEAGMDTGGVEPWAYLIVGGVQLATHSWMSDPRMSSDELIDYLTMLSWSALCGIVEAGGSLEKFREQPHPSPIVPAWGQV
Experiment: EMSA
Details: recombinant protein

Measured: binding result

CAGTTATCTGTGTCTAATGGTTGCAGTCAATATATCTGTGTCTCTCGGTA (double strand) [desA1 promoter -19/+31]
binds: 5 uM C14:0-CoA | 5 uM C16:0 fatty acid | 5 uM C16:1-CoA | 5 uM C16:1 fatty acid | 5 uM C18:0 fatty acid | 5 uM C18:1-CoA | 5 uM C18:1 fatty acid | 5 uM C18:2-CoA | 5 uM C18:2 fatty acid | 5 uM C18:3-CoA | 5 uM C18:3 fatty acid | 5 uM C20:0 fatty acid | 5 uM C22:0 fatty acid | 5 uM C24:0 fatty acid

TTCACGAAATCTGTGTATGCGAGTTACAGTTACCGCATGGCACAGAAACC (double strand) [desA2 promoter -36/+14]
binds: 5 uM C14:0-CoA | 5 uM C16:0 fatty acid | 5 uM C16:1-CoA | 5 uM C16:1 fatty acid | 5 uM C18:0 fatty acid | 5 uM C18:1-CoA | 5 uM C18:1 fatty acid | 5 uM C18:2-CoA | 5 uM C18:2 fatty acid | 5 uM C18:3-CoA | 5 uM C18:3 fatty acid | 5 uM C20:0 fatty acid | 5 uM C22:0 fatty acid | 5 uM C24:0 fatty acid

For at least one entry, the source does not settle the construct or the ends of the probe. At least one verdict rests on a figure or table, not on a statement of the authors. Tags and fusion partners may be left off the protein sequences shown.
